As a reminder, the inhibition is the relative decrease from the control value, in per cent.

By UniProt entry, the sequences of proteins in these tests, tags left out. Where a name states a change or a piece, a line headed by the entry shows the natural chain unless it says otherwise.
UniProt P9WQA3: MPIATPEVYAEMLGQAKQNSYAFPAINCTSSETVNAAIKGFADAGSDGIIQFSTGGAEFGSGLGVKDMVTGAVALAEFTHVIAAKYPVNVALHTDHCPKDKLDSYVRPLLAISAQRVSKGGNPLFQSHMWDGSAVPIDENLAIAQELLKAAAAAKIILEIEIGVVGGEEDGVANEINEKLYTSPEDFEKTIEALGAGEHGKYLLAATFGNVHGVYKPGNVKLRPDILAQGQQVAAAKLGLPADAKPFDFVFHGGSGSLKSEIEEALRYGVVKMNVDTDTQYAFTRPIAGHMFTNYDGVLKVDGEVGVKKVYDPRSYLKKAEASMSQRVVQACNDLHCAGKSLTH

Structures are written as SMILES. Only a part is listed here, and it is no random draw. Active and inactive are the calls of the source. Cut-off read from the data, not from the text of the source: active = inhibition above about 27%; inactive = the rest.

The target of this experiment is Fructose-bisphosphate aldolase (Mycobacterium tuberculosis (strain ATCC 25618 / H37Rv)) (UniProt P9WQA3). In words: M. tuberculosis aldolase activity blockers – biochemical, fluorescence, strain H37Rv, primary screen (AID 588726).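 Note: 0% = vehicle and 100% = reference inhibitor.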 The note with it: purified M. tuberculosis FBA, fluorescence read-out; at 1 µM; active compounds read high.
`CN(C(=O)Cc1ccccc1)[C@@H]1CC[C@]2(CCCO2)C[C@H]1N1CCCC1`: the inhibition is inactive: -2.68%.
As for `CCOP1(=S)c2c(C)nn(CCC#N)c2N=C(c2ccc(F)cc2)N1C` (stereo not given), the figure is inactive: 0.23%.
As for `Cc1nn(-c2ccccc2)c2c1P(=O)(N1CCOCC1)N(C)C(c1ccccc1)=N2` (stereo not given), the figure is inactive: 4.01%.
For `CC1CCC(C(C)C)C(OP(=O)(Nc2ccccn2)c2ccccc2)C1` (stereo not given), the inhibition is inactive: 2.78%.
The same measure for `Cc1ccc(C(=O)OC2CN3CCC2CC3)cc1` (stereo not given): inactive: 1.05%; for `O=C(/C=C/c1ccccc1)OC1CN2CCC1CC2` (stereo not given): inactive: 1.93%; for `CCCC1OP(=O)(Nc2ccccc2)OCC1CC` (stereo not given): inactive: -1.95%.
As for `CN(C)C1(CNC(=O)c2ccc(S(C)(=O)=O)cc2)CCCCC1`, the figure is inactive: 0.3%; as for `O=P1(Nc2ncccn2)COc2ccccc2OC1`, inactive: -3.22%.
Turning to `Cc1ccc(S(=O)(=O)N(CCCN)CCCc2c(C)nc(N)[nH]c2=O)cc1`, the inhibition is inactive: -8.4%.
As for `Cc1ccc(OCC(=O)OC2CN3CCC2CC3)cc1` (stereo not given), the figure is inactive: 0.75%; as for `O=[As](O)(c1cccs1)c1cccs1`, inactive: 0.72%.
The same measure for `O=P1(Nc2ccc(Br)cn2)COc2ccccc2OC1`: inactive: -4.21%; for `NS(=O)(=O)c1cccc(NC(=O)COC(=O)C(O)(c2ccccc2)c2ccccc2)c1`: inactive: -0.4%.
The same measure for `Nc1cccc([As](=O)(O)c2ccccc2)c1`: inactive: -0.56%; for `CCOP(=O)(Nc1ccc(C)cn1)OCC`: inactive: -0.22%; for `CN(CCCl)Cc1cc(Cl)c(NC2=NCCN2)c(Cl)c1`: inactive: 0.01%.
On to `O=P1(Nc2ccccn2)COc2ccccc2OC1`, for which the inhibition was inactive: -1.27%.
The same measure for `CCC1=CC2Cc3nc4ccc(Cl)cc4c(N)c3C(C1)C2` (stereo not given): inactive: 4.59%; for `CCOP(=O)(NC(=NC(C)c1ccccc1)NC(C)c1ccccc1)OCC` (stereo not given): inactive: -1.23%; for `O=P1(N(CCCl)CCCl)NCCC(C(F)(F)F)O1` (stereo not given): inactive: -1.77%.
As for `Clc1n[nH]nc1-c1nn[nH][15n]1`, the figure is inactive: 3.18%; as for `CC(C)(C)C(=O)NC(Sc1ncccn1)C(Cl)(Cl)Cl` (stereo not given), inactive: 1.26%.
The same measure for `COc1ccccc1CNC(=O)COC(=O)C(O)(c1ccccc1)c1ccccc1`: inactive: -2.33%; for `CC1(CBr)Cn2c(nc3ccccc3c2=O)S1` (stereo not given): inactive: -5.19%; for `CC(C)/C=N\N=C(\N)N[N+](=O)[O-]`: inactive: 4.72%.
For `CN(C(=O)Cc1ccc(Cl)c(Cl)c1)[C@@H]1CCCC[C@H]1N1CCCC1`, the inhibition is inactive: -3.97%.
As for `CC(C)C(=O)NC(Sc1ccccc1)C(Cl)(Cl)Cl` (stereo not given), the figure is inactive: 2.81%; as for `O=P(Nc1nccs1)(c1ccccc1)c1ccccc1`, inactive: -3.54%.
The same measure for `c1nnnn1CCn1cnnn1`: inactive: 3.06%; for `COc1ccc(N)c([N+](=O)[O-])c1[N+](=O)[O-]`: inactive: -6.09%.
The same measure for `Nc1ccc(CCCCOc2ccccc2)cc1`: inactive: -8.49%.
Take `O=P(Nc1ccccn1)(c1ccc(Br)cc1)c1ccc(Br)cc1`: the inhibition was inactive: 10.6%.
For `CN(C)C1(CNC(=O)c2ccc(Cl)c(S(N)(=O)=O)c2)CCCCC1`, the inhibition was inactive: -0.1%.
The same measure for `O=P(Nc1nc2ccccc2s1)(c1ccccc1)c1ccccc1`: inactive: -0.6%; for `C[C@H]1OP(=O)(Oc2ccccc2)[C@H](O)[C@H](O)[C@H]1N=[N+]=[N-]` (stereo not given in full): inactive: -1.3%; for `O=[N+]([O-])c1ccc(O)c(/C=N/Nc2ccc([N+](=O)[O-])cc2[N+](=O)[O-])c1`: inactive: 4.58%.
The same measure for `CC(=O)NC(SC(=S)N(C)C)C(Cl)(Cl)Cl` (stereo not given): inactive: -0.24%.
As for `O=[N+]([O-])c1ncn(CCn2cnc([N+](=O)[O-])n2)n1`, the inhibition is inactive: 2.39%.
As for `O=[As](O)(c1ccccc1)c1ccc(O)cc1`, the figure is inactive: 0.42%; as for `C(Cc1nn[nH]n1)Cc1nn[nH]n1`, inactive: 0.2%; as for `Nc1ccc([As](=O)(O)c2ccc([N+](=O)[O-])cc2)cc1`, inactive: -1.25%.
As for `O=C(OC1CN2CCC1CC2)c1cccc(Cl)c1` (stereo not given), the figure is inactive: 1.68%; as for `CCNC(=S)/N=C(\N)N[N+](=O)[O-]`, inactive: 3.5%; as for `O=C(NC1CCS(=O)(=O)C1)NP(=S)(Oc1ccccc1)Oc1ccccc1` (stereo not given), inactive: 0.66%.
The same measure for `c1ccc(-c2nn[nH]n2)c(-c2nn[nH]n2)c1`: inactive: 1.61%; for `Cc1ccc(NP(=O)(Oc2cccc(C)c2)Oc2cccc(C)c2)nc1`: inactive: 4.99%.
As for `O=P1(N(CCCl)CCCl)OCCC2CCCCN21` (stereo not given), the inhibition is inactive: 1.09%.
As for `COC(=O)c1cc2c(s1)N=C(c1ccccc1)N(C)P2(=O)N1CCOCC1` (stereo not given), the figure is inactive: -1.88%.
As for `CC(=O)NC(SC(=S)N(CC(C)C)CC(C)C)C(Cl)(Cl)Cl` (stereo not given), the inhibition was inactive: -0.21%.
Turning to `Cc1ccc(OP(=O)(Nc2ccccn2)Oc2ccc(C)cc2)cc1`, the inhibition is inactive: 1.21%.
For the molecule `O=C(OC1CN2CCC1CC2)c1ccccc1` (stereo not given), the inhibition was inactive: 1.33%.
On to `CCC(=O)N1C2C3N(C(=O)CC)C1C1N(C(=O)CC)C(C(N1C(=O)CC)N3C(=O)CC)N2C(=O)CC`, for which the inhibition is inactive: 2.42%.
As for `CC(NC(=O)COC(=O)C(O)(c1ccccc1)c1ccccc1)c1ccccc1` (stereo not given), the figure is inactive: 4.68%; as for `Cc1ccccc1OP(=O)(Nc1ccccn1)Oc1ccccc1C`, inactive: 11.7%; as for `O=c1c2cc([N+](=O)[O-])ccc2[nH]c2c([N+](=O)[O-])cc([N+](=O)[O-])cc12`, inactive: -7.43%.
As for `CN(C)C(=O)Oc1noc2ccccc12`, the figure is inactive: -0.01%; as for `O=P1(Nc2nc3ccc(Cl)cc3s2)COc2ccccc2O1` (stereo not given), inactive: -0.62%; as for `CCOc1ccc(C2=NCC(CBr)S2)cc1` (stereo not given), inactive: 3.61%.
The same measure for `CCc1cc(O)c([N+](=O)[O-])c(C)c1[N+](=O)[O-]`: inactive: -5.39%.
On to `CC(C)(C)C(=O)NC(Sc1ccccc1)C(Cl)(Cl)Cl` (stereo not given), for which the inhibition was inactive: -4.38%.
As for `CC(=O)c1ccc(N2CC2c2ccncc2)cc1` (stereo not given), the figure is inactive: 3.37%; as for `N#C/C(=C\c1ccc(N(CCBr)CCBr)cc1)C(N)=O`, inactive: -13%; as for `COC(=O)C1(C)COP(=O)(NCc2ccccc2)OC1` (stereo not given), inactive: -0.5%.
In the case of `Cc1ccccc1CN(C)C(=O)COC(=O)C(O)(c1ccccc1)c1ccccc1`, the inhibition was inactive: 3.18%.
